Results of unrelated studies side by side (data: NIAID ChemDB).

All rows: tests in culture; organism: Candida albicans

Blank or dashed fields: not listed here. ECn is the concentration giving n% inhibition of infection, replication or growth. Neighbouring rows are from separate reports. Two numbers with a dash give a range or band. A number after MIC or MFC names an inhibition level or a share of isolates.

structure,endpoint,strain,method,value
C[C@@H](NC(=O)c1ccc(Cl)cc1NC=O)[C@](O)(Cn1cncn1)c1ccc(F)cc1F,MIC,60 strains,,≤0.03 µg/mL
Cc1ccc(OC/C(N)=N\NC(=O)c2ccncc2)cc1,MIC,ATCC E10231,,>100 µg/mL
O=c1on(Cc2ccccc2)cc1-c1ccc(Cl)c(Cl)c1,MIC50,ATCC 90028,,>32 µg/mL
NC(=S)c1cc(SC2CCCCC2)ccn1,MIC,ATCC 44859,,500 µM
C[C@H]1[C@H](O)[C@@H](C)/C=C/C=C/C=C/C=C/C=C/C=C/C=C/[C@H](O[C@@H]2O[C@H](C)[C@@H](O)[C@H](N)[C@@H]2O)C[C@@H]2O[C@](O)(C[C@@H](O)C[C@@H](O)CC[C@H](O)[C@@H](O)C[C@@H](O)CC(=O)O[C@H]1C)C[C@H](O)[C@H]2C(=O)O,MIC,5 isolates,,0.63–1.25 µg/mL
CC1CC(NOC(=O)c2ccccc2)=Nc2ccccc2S1,MIC,CBS 562,,>100 µg/mL
COc1ccc(C(Cc2ccc(Cl)cc2Cl)C(c2ccc(OC)cc2)n2cnnc2)cc1,EC50,28 strains,,>256 µg/mL
Brc1ccc(Oc2ccnc(Oc3ccc(Br)cc3)n2)cc1,EC50,,,23.6 µg/mL
CCCCCCCSc1ccnc(C(N)=S)c1,MIC,ATCC 44859,,>500 µM
O=C(O)c1n[nH]c2nc3ccccc3n2c1=O,MIC,,agar,<0.016 µg/mL
C[C@@H](c1ncncc1F)[C@](O)(Cn1cncn1)c1ccc(F)cc1F,MIC,60 strains,,≤0.03 µg/mL
ONC1=Nc2cnc3ccccc3c2SC1,MIC,CBS 562,,>100 µg/mL
CC(C)(C)C(=O)OCC1C=C(c2ccc(Cl)c(Cl)c2)C(=O)O1,MIC50,ATCC 90028,,1 µg/mL
CC(=O)ONC1=Nc2ccc(Cl)cc2SCC1,MIC,CBS 562,,50 µg/mL
C[C@@H](n1cnc2cc(Oc3ccc(Cl)cc3)ccc2c1=O)[C@](O)(Cn1cncn1)c1ccc(F)cc1F,MIC,406 strains,,≤0.03 µg/mL
c1ccc(Oc2ccnc(Oc3ccccc3)n2)cc1,EC50,,,24 µg/mL
Cc1ccccc1N/N=c1/sc2nnc(-c3ccncc3)n2nc1C,MIC,ATCC 10231,broth dilution,>100 µg/mL
O=C(Cn1c(=O)oc2cc(C(=O)c3cccc(F)c3)c(Cl)cc21)c1ccc(Br)cc1,MIC,ATCC 90028,,128 µg/mL
COC(=O)[C@H]1C[C@](C(=O)OC)(c2ccccc2)N(C(=S)NC(=O)c2ccccc2)[C@H]1c1ccccc1,MIC,ATCC 90028,,100 µg/mL
NNC(=O)c1cc(Cl)cc(Cl)c1SSc1c(Cl)cc(Cl)cc1C(=O)NN,MIC,,,250 µg/mL
CO[C@@H](n1cncn1)[C@@](O)(Cn1cccn1)c1ccc(F)cc1F,MIC,,,>100 µg/mL
O=C(Cn1c(=O)oc2cc(C(=O)c3cc(F)ccc3F)ccc21)c1ccc(Br)cc1,MIC,ATCC 90028,,128 µg/mL
N/C(COc1ccc([N+](=O)[O-])cc1)=N/NC(=O)c1ccncc1,MIC,ATCC E10231,,>100 µg/mL
COc1ccc(C(Cc2ccc(Cl)cc2)n2cncn2)cc1,MIC90,28 strains,,64 µg/mL
COc1ccc(C(=O)c2cc(C)ccc2OCc2nnc3n2N=C(c2ccccc2)CS3)cc1,MIC,,,8 µM
Cc1ccc(C(=O)Cn2c(=O)oc3cc(C(=O)c4ccccc4F)c(Cl)cc32)cc1,MIC,ATCC 90028,,128 µg/mL
Cc1ccc(Oc2ccnc(Oc3ccc(C)cc3)n2)cc1,EC50,,,16.8 µg/mL
Cc1cccc(OC/C(N)=N\NC(=O)c2ccncc2)c1,MIC,ATCC E10231,,>100 µg/mL
C[C@@H](n1cnc2cc(N(C)C)ccc2c1=O)[C@](O)(Cn1cncn1)c1ccc(F)cc1F,MIC,406 strains,,≤0.03 µg/mL
Clc1ccc(Nc2ccnc(Nc3ccc(Cl)cc3)n2)cc1,EC50,,,0.62 µg/mL
CO[C@@H](n1cccn1)[C@](O)(Cn1cccn1)c1ccc(Cl)cc1,MIC,,,>100 µg/mL
CCCCCCCCSc1ccnc(C(N)=S)c1,MIC,ATCC 44859,,>500 µM
CC1(C)CC(=O)C(N=Nc2nc3ccccc3[nH]2)=C(O)C1,MIC,,agar,<0.016 µg/mL
CC(C)(C)Sc1ccnc(C(N)=S)c1,MIC,ATCC 44859,,62.5 µM
COc1ccc2c(c1OC)CN1CCc3cc4c(cc3C1=C2)OCO4,MIC,ATCC 10231,,128 µg/mL
ONC1=Nc2cc(Cl)ccc2SC1,MIC,CBS 562,,>100 µg/mL
Clc1ccc(/C(Cn2ccnc2)=N\Nc2c(Cl)cccc2Cl)s1,MIC,A,,6.2 µg/mL
O=C(Cn1c(=O)oc2cc(C(=O)c3c(F)cccc3F)ccc21)c1ccc(Cl)cc1,MIC,ATCC 90028,,64 µg/mL
COC(=O)[C@H]1C[C@@](CC(C)C)(C(=O)OC)N(C(=S)NC(=O)c2ccccc2)[C@H]1c1ccccc1,MIC,ATCC 90028,,75 µg/mL
C1C2CC3CC1CC(C2)C3Nc1nnc(C2C3CC4CC(C3)CC2C4)s1,MIC,IFO 0583,,2 µg/mL
O=C(c1ccccc1)c1ccc(Br)cc1OCc1nnc2n1N=C(c1ccccc1)CS2,MIC,,,5.5 µM
CCCCSc1ccnc(C(N)=S)c1,MIC,ATCC 44859,,>500 µM
O=C(Cn1c(=O)oc2cc(C(=O)c3cccc(F)c3)c(Cl)cc21)c1ccc(Cl)cc1,MIC,ATCC 90028,,128 µg/mL
CCCCCCCCCCCCCCCCCCCCCC[C@H](O)CCCCCC,MFC,,broth dilution,500 µM
CO[C@@H](n1cccn1)[C@](O)(Cn1ccnc1)c1ccc(F)cc1F,MIC,,,>100 µg/mL
COc1ccc(N/N=c2/sc3nnc(-c4ccncc4)n3nc2C)cc1,MIC,ATCC 66027,broth dilution,25 µg/mL
O=C(N/N=C(\COc1cccc(Cl)c1)N=Cc1ccncc1)c1ccncc1,MIC,ATCC E10231,,>100 µg/mL
Nn1c(COc2cc(Br)ccc2C(=O)c2ccccc2)n[nH]c1=S,MIC,,,4 µM
COc1ccc(OC/C(N=Cc2ccncc2)=N\NC(=O)c2ccncc2)cc1,MIC,ATCC E10231,,>100 µg/mL
Cc1nn2c(-c3ccncc3)nnc2s/c1=N/Nc1ccccc1,MIC,ATCC 10231,broth dilution,25 µg/mL
CCCOc1ccccc1/C=N/NC(=O)c1ccccc1SSc1ccccc1C(=O)N/N=C/c1ccccc1OCCC,MIC,,,250 µg/mL
O=c1ccc(O)cn1CC1=CC=C(CO)SS1,MIC,ATCC10259,,>100 µg/mL
CO[C@@H](n1cncn1)[C@](O)(Cn1ccnc1)c1ccc(Cl)cc1Cl,MIC,,,>100 µg/mL
COc1ccc(OC/C(N)=N\NC(=O)c2ccncc2)cc1,MIC,ATCC E10231,,>100 µg/mL
CO[C@@H](n1cncn1)[C@](O)(Cn1ccnc1)c1ccc(F)cc1,MIC,,,>100 µg/mL
CCCCCCCC/C=C\CCCCCCCC(=O)N[C@H](C(=O)N1C[C@H](C)C[C@H]1C(=O)N[C@H](C(=O)N[C@@H](CCO)C(=O)N[C@@H](C)C=O)C(C)C)[C@@H](C)O,MIC,MY1055,broth dilution / visual reading,2 µg/mL
O=C(N/N=C(\COc1ccc([N+](=O)[O-])cc1)N=Cc1cccnc1)c1ccncc1,MIC,ATCC E10231,,>100 µg/mL
CO[C@@H](n1cccn1)[C@@](O)(Cn1ccnc1)c1ccc(Cl)cc1,MIC,,,>100 µg/mL
CC#CC#CC#Cc1ccccc1,MIC,ATCC 18804,,50 µg/mL
CC(CCC(=O)NCCCNCCCCNCCCN)[C@H]1CCC2C3CC[C@@H]4C[C@H](OS(=O)(=O)O)CC[C@]4(C)C3C[C@H](C)[C@@]21C,MIC,90028,,100 µg/mL
Cc1cc(C)c2ncn([C@H](C)[C@](O)(Cn3cncn3)c3ccc(F)cc3F)c(=O)c2c1,MIC,60 strains,,≤0.15 µg/mL
O=C1OC(CO)C=C1c1ccc(Cl)c(Cl)c1,MIC50,ATCC 90028,,>32 µg/mL
COc1ccc(CC(c2ccc(OC)cc2)n2ccnc2)cc1,MIC90,28 strains,,128 µg/mL
CC(C)=CCc1c(O)ccc(C(=O)/C=C/c2ccc(O)cc2)c1O,MIC50,,,3 µg/mL
CCC(c1ccc(Cl)cc1)C(c1ccc(OC)cc1)n1cncn1,MIC90,28 strains,,>256 µg/mL
Clc1ccccc1C(c1ccccc1)(c1ccccc1)n1ccnc1,MIC50,15 isolates,,10 µg/mL
COc1ccc(C(=O)C(Cc2ccc(Cl)cc2Cl)c2ccc(Cl)cc2)cc1,EC50,28 strains,,<256 µg/mL
Nc1[nH]n(-c2ccccc2)c(=O)c1N=Nc1nc2ccccc2[nH]1,MIC,,agar,<0.016 µg/mL
N/C(COc1ccc(Cl)cc1)=N/NC(=O)c1ccncc1,MIC,ATCC E10231,,>100 µg/mL
Fc1ccc(-c2cn(-c3ccccc3)nc2C=Nc2nc3ccccc3[nH]2)cc1,MIC,,agar,<0.016 µg/mL
COC(=O)[C@H]1C[C@@](Cc2ccccc2)(C(=O)OC)N(C(=S)NC(=O)c2ccccc2)[C@H]1c1ccccc1,MIC,ATCC 90028,,100 µg/mL
Cc1ccc(OCc2nnc3n2N=C(c2ccccc2)CS3)c(C(=O)c2cccc(Cl)c2)c1,MIC,,,3 µM
Clc1ccc(Oc2ccnc(Oc3ccc(Cl)cc3)n2)cc1,EC50,,,14.8 µg/mL
ONC1=Nc2ccccc2SC(c2ccccc2)C1,MIC,CBS 562,,>100 µg/mL
O=C(NCc1ccc(Cl)cc1)c1ccccc1O,Geometric mean MIC,ATCC 44859,,352.3 µM
NC(=NC1CCCC1)c1ccc(-c2ccc(-c3ccc(C(N)=NC4CCCC4)cc3)o2)cc1,MFC,Isolate 3022 fluconazole-resistant,,25 µg/mL
O[C@](Cn1cncn1)(c1ccc(F)cc1F)[C@@H](OCC(F)(F)F)n1cncn1,MIC,,,>100 µg/mL
O=C(N/N=C(\COc1ccccc1)N=Cc1ccccn1)c1ccncc1,MIC,ATCC E10231,,100 µg/mL
C[C@@H](n1cnc2ncccc2c1=O)[C@](O)(Cn1cncn1)c1ccc(F)cc1F,MIC,406 strains,,5 µg/mL
O=C(N/N=C/c1ccc(Cl)cc1Cl)c1cc(Cl)ccc1SSc1ccc(Cl)cc1C(=O)N/N=C/c1ccc(Cl)cc1Cl,MIC,,,250 µg/mL
C[C@@H](n1cnc2cc(NC(=O)C(F)(F)F)c(F)cc2c1=O)[C@](O)(Cn1cncn1)c1ccc(F)cc1F,MIC,76 strains,,5 µg/mL
CCCCCCCCCCSc1ccnc(C(N)=S)c1,MIC,ATCC 44859,,>500 µM
C[C@@H](n1cnc2c(Cl)cccc2c1=O)[C@](O)(Cn1cncn1)c1ccc(F)cc1F,MIC,76 strains,,10 µg/mL
C[C@H]1[C@H](O)[C@@H](C)/C=C/C=C/C=C/C=C/C=C/C=C/C=C/[C@H](O[C@@H]2O[C@H](C)[C@@H](O)[C@H](N)[C@@H]2O)C[C@@H]2O[C@](O)(C[C@@H](O)C[C@@H](O)CC[C@H](O)[C@@H](O)C[C@@H](O)CC(=O)O[C@H]1C)C[C@H](O)[C@H]2C(=O)O,MIC,,,8 µg/mL
Cc1ccc(OCc2n[nH]c(=S)o2)c(C(=O)c2cccc(Cl)c2)c1,MIC,,,7 µM
C[C@@H](n1ncn(-c2ccc(OCC(F)(F)C(F)F)cc2)c1=O)[C@](O)(Cn1cncn1)c1ccc(F)cc1F,MIC,406 strains,,≤0.03 µg/mL

For reference, 10 entries again:

structure,endpoint,strain,method,value
Cc1ccc(OCc2n[nH]c(=S)o2)c(C(=O)c2cccc(Cl)c2)c1,MIC,,,7 µM
C[C@@H](n1cnc2cc(Oc3ccc(Cl)cc3)ccc2c1=O)[C@](O)(Cn1cncn1)c1ccc(F)cc1F,MIC,406 strains,,≤0.03 µg/mL
Cc1cc(C)c2ncn([C@H](C)[C@](O)(Cn3cncn3)c3ccc(F)cc3F)c(=O)c2c1,MIC,60 strains,,≤0.15 µg/mL
Cc1cccc(OC/C(N)=N\NC(=O)c2ccncc2)c1,MIC,ATCC E10231,,>100 µg/mL
COc1ccc(C(Cc2ccc(Cl)cc2)n2cncn2)cc1,MIC90,28 strains,,64 µg/mL
COc1ccc(C(=O)c2cc(C)ccc2OCc2nnc3n2N=C(c2ccccc2)CS3)cc1,MIC,,,8 µM
O=C(c1ccccc1)c1ccc(Br)cc1OCc1nnc2n1N=C(c1ccccc1)CS2,MIC,,,5.5 µM
COC(=O)[C@H]1C[C@](C(=O)OC)(c2ccccc2)N(C(=S)NC(=O)c2ccccc2)[C@H]1c1ccccc1,MIC,ATCC 90028,,100 µg/mL
C[C@@H](n1cnc2c(Cl)cccc2c1=O)[C@](O)(Cn1cncn1)c1ccc(F)cc1F,MIC,76 strains,,10 µg/mL
NC(=NC1CCCC1)c1ccc(-c2ccc(-c3ccc(C(N)=NC4CCCC4)cc3)o2)cc1,MFC,Isolate 3022 fluconazole-resistant,,25 µg/mL